Test results reported in patent US5552382A (priority 1994, dated 1996).

Tested on: IIIB strain of HIV
Type: cell-based
Experimental: The following test procedure was employed.
In a classical virology assay aimed at testing the antiviral activity of a drug, the virus is added in the presence of a drug to target cells for the determined period of inoculation time, e.g., 1 hour, and then nonadsorbed virus is washed away and inoculated cells are exposed again to a fresh drug. After several days, a period corresponding to the replication cycle of the virus, the dose-effect of the drug is tested by measuring the quantity of newly-synthesized virus in the culture supernates of inoculated cells. But this strategy is not truly representative of the in vivo situation. It is clear that in a real-life situation the virus is not "flushed" from a human body prior to drug administration. […] In the present assay, virus, drug and cells were left without washing in the culture until tested for virus production 3 days later. This period of time presents one full cycle of HIV replication, Dimitrov et al., J. Virol. 67:2182-90, 1993. […]
p24 ELISA. Reduction of productive infection was evaluated by a commercial ELISA kit for viral core gag p24 product according to the manufacturer's instructions (Coulter, Hialeah, Fla.) as follows. […] The amount of captured p24 was measured by comparing the optical density (450 nm) of peroxidase substrate with supplied standards containing known amounts of p24. […]

Compound	TI (therapeutic index), ratio between CC100 and IC100
Cc1cc2c(C(C)C)c(O)c(O)c(C=O)c2c(O)c1-c1c(C)cc2c(C(C)C)c(O)c(O)c(C=O)c2c1O [Gossypol, gossypol]	1
nonoxynol-9	1
